Pooled drug test results. Numbers come from NIAID ChemDB, via PubChem.

All rows: whole-cell or culture tests; agent: HIV-1; method: cytopathic effect; read-out: EC50

Blank or dashed fields: not listed here.

smiles,changes,cell line,strain,value
Cc1cn([C@H]2C[C@H](F)[C@@H](COC(=O)CCCCCCCCCCCBr)O2)c(=O)[nH]c1=O,-,CEM + CEM-SS,-,0.025 µM
Nc1ncnc2c1ncn2CCOCP(=O)(O)O,-,MT-4,IIIB,0.6 µg/mL
Cc1cn([C@H]2C[C@H](N=[N+]=[N-])[C@@H](CO)O2)c(=O)[nH]c1=O,-,MT-4,LAI,0.004 µg/mL
O=c1[nH]cnc2c1ncn2[C@H]1CC[C@@H](CO)O1,-,MT-4,IIIB,0.46 µM
N#Cc1ccc(S(=O)(=O)c2cccc(N)c2C#N)cc1,-,MT-4,IIIB,2.4 µM
Cc1cn([C@@H]2O[C@H](CO[Si](C)(C)C(C)(C)C)C3(OS(=O)(=O)C=C3N)[C@H]2O[Si](C)(C)C(C)(C)C)c(=O)n(C)c1=O,RT-L100I,CEM,NNRTI-resistant,0.18 µM
C[C@H](NC(=O)[C@H](CCCN=C(N)N)NC[C@@H](N)CCCN=C(N)N)c1cccc2ccccc12,-,MT-4,-,46 µM
CCN1c2cc(C)c(C)cc2N(C)S(=O)(=O)c2cccnc21,-,MT-4,HE,0.3 µM
N#Cc1c(N)cccc1S(=O)(=O)c1cc(Cl)ccc1Cl,-,MT-4,IIIB,3.5 µM
CCCCCCCCCCCCCC(=O)OC[C@H]1O[C@@H](n2cc(C)c(=O)[nH]c2=O)C[C@@H]1F,-,CEM + CEM-SS,-,0.0445 µM
CC[C@H]1C(=O)Nc2ccc(F)cc2N1C(=O)OC(C)C,RT-V108I M184I,CEM,D-3 (RT-V108I M184I),0.0015 µg/mL
CCOP(=O)(OCC)OC[C@@H]1C=C[C@H](n2cc(C)c(=O)[nH]c2=O)O1,-,CEM + CEM-SS,-,3.5 µM
C[C@@H](N[C@@H](CCCN=C(N)N)C(=O)c1ccc(CNC(=O)c2ccc(C(F)(F)F)cc2)cc1)c1cccc2ccccc12,-,MT-4,-,7.4 µM
Cc1cn([C@H]2C[C@H](N=[N+]=[N-])[C@@H](CO)O2)c(=O)[nH]c1=O,-,CEM + CEM-SS,-,0.004 µM
N#Cc1c(N)cccc1Sc1cc(Cl)cc(Cl)c1,-,MT-4,IIIB,<5 µM
CC(C)[C@H](NC(=O)OCc1ccccc1)C(=O)N[C@@H](Cc1ccccc1)C(=O)C(F)(F)CCc1ccccc1,-,MT-4,-,>100 µM
Nc1ccn([C@H]2CC[C@@H](CO)O2)c(=O)n1,-,MT-4,IIIB,1.9 ± 0.8 µM
CCOc1cc(C)cc(S(=O)(=O)c2cccc(N)c2C#N)c1,-,MT-4,IIIB,0.43 µM
Cc1cn([C@H]2C[C@H](F)[C@@H](COC(=O)CCCCCCCCCCCN=[N+]=[N-])O2)c(=O)[nH]c1=O,-,CEM + CEM-SS,-,0.0028 µM
CCN1c2ncccc2N(C)C(=S)c2oc3cccnc3c21,-,C8166,MN,0.006 µM
O=[N+]([O-])c1ccc(/C=N/Nc2ccnc3c(C(F)(F)F)cc(Cl)cc23)o1,-,-,-,0.033 µM
N#Cc1c(N)cccc1S(=O)(=O)c1cccc(C(F)(F)F)c1,-,MT-4,IIIB,80 µM
CC(C)[C@H](NC(=O)OCc1ccccn1)C(=O)N[C@@H](Cc1ccccc1)C(=O)C(F)(F)CCc1ccccc1,-,MT-4,-,6.3 µM
NC(N)=NCCC[C@H](NC(=O)[C@@H](N)Cc1ccc2ccccc2c1)C(=O)c1ccc(CNC(=O)c2ccc(C(F)(F)F)cc2)cc1,-,MT-4,-,6 µM
C=C(C)[C@@]12OC3(/C=C/C=C/C=C/CCC)O[C@@H]1[C@@H]1[C@@H]4O[C@]4(CO)[C@@H](O)[C@]4(O)C(=O)C(C)=C[C@H]4[C@@]1(O3)[C@H](C)[C@H]2OC(C)=O,-,-,-,0.00563 µM
CC[C@H]1C(=O)Nc2ccc(F)cc2N1C(=O)OC(C)C,RT-E138K,CEM,TSAO-m3T-resistant,0.0057 µM
CC(C)[C@H](NC(=O)NCc1ccccn1)C(=O)N[C@@H](Cc1ccccc1)C(=O)C(F)(F)CCc1ccccc1,-,MT-4,-,7.6 µM
CC(C)=CCOc1cc(NC(=S)c2ccoc2C)ccc1Cl,-,CEM,IIIB,0.0025 µg/mL
Cc1cc(Cl)cc(S(=O)(=O)c2cccc(N)c2C#N)c1,-,MT-4,IIIB,0.02 µM
C=C1OC(C(=O)O)C(/C(=C/C(=O)O)C(=O)OC2C3COC(=O)c4cc(O)c(O)c(O)c4-c4c(cc(O)c(O)c4O)C(=O)OC2C(O)C(OC(=O)c2cc(O)c(O)c(O)c2)O3)c2c1cc(O)c(O)c2O,-,SupT1 + Sup-T1,-,4.5 µM
Cc1cn([C@H]2C=C[C@@H](COP(=O)(O)O)O2)c(=O)[nH]c1=O,-,CEM + CEM-SS,-,0.73 µM
CC(C)(C)NC(=O)[C@@H]1CN(Cc2cccnc2)CCN1C[C@@H](O)C[C@@H](Cc1ccccc1)C(=O)N[C@H]1c2ccccc2C[C@H]1O,PR-V82A,MT-2,RF/41-D2-(PR-V82A) PI-resistant,0.028 µM
C[C@H](NC[C@H](CCCN=C(N)N)NC(=O)[C@H](CCCN=C(N)N)NC(=O)[C@@H](N)Cc1ccc(O)cc1)c1cccc2ccccc12,-,MT-4,-,22 µM
Nc1nc(N)c2ncn(CCOCP(=O)(O)O)c2n1,-,MT-4,IIIB,0.3 µg/mL
CCSCCCCCCCCCCCC(=O)OC[C@H]1O[C@@H](n2cc(C)c(=O)[nH]c2=O)C[C@@H]1F,-,CEM + CEM-SS,-,0.016 µM
CC(C)Nc1cccnc1N1CCN(C(=O)c2cc3cc(NS(C)(=O)=O)ccc3[nH]2)CC1,RT-K103N,CEM,NNRTI-resistant,2.51 µM
C[C@H](NC[C@H](CCCN=C(N)N)NC(=O)[C@@H](N)CCCN=C(N)N)c1cccc2ccccc12,-,MT-4,-,52 µM
Cc1cc(Br)cc(S(=O)(=O)c2cccc(N)c2C#N)c1,-,MT-4,IIIB,0.01 µM
O=c1[nH]cnc2c1ncn2[C@H]1CC[C@@H](CO)O1,-,MT-4,IIIB,23 ± 3.3 µM
C[C@H](NC(=O)[C@H](CCCN=C(N)N)NC[C@H](CCCN=C(N)N)NC(=O)[C@@H](N)Cc1ccc(O)cc1)c1cccc2ccccc12,-,MT-4,-,26 µM
C=C(C)[C@]12C[C@@H](C)[C@@]34OC(CCCCCCCCCCCCCCC)(O[C@@H]1[C@@H]3[C@@H]1O[C@]1(CO)[C@@H](O)[C@]1(O)C(=O)C(C)=C[C@H]14)O2,-,-,-,0.00052 µM
CCOCn1c(Cc2ccccc2)c(C(C)C)c(=O)[nH]c1=O,RT-K101E,CEM,C-1 (RT-K101E),0.0082 µg/mL
CCN1c2ncccc2N(C)C(=S)c2sc3cccnc3c21,-,MT-4,IIIB,0.0035 µM

Neighbouring rows are from separate reports. ECn: concentration that inhibits the pathogen or its effect by n%.